Experimental data as given in paper PMC6134199.

Target: T1, SlyA (Escherichia coli K-12 W3110 type A) (UniProt P0A8W2)
T1 sequence (looked up, limits assumed): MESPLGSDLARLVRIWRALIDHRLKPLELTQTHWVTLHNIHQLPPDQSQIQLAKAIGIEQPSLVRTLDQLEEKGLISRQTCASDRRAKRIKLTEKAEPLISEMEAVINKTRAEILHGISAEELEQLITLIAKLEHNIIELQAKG
Assay: EMSA
Details: 0.5 pmol each FITC probe + 20 pmol TF (Fig 4: 0-8 pmol) in 10 ul DNA-binding buffer (composition not given, ref 38), 37 C, 20 min, PAGE with mixed probes, recombinant protein, protein details: His, label: FITC

“ATTATAAAGATTTGTAAATATAACCGTCTCCGGTATGTTGCCTGAGGCGGTTTTTTTGTCTCTAACGTGCGGAAAAATTTGTTCCTCTTCACATTTTTTGTACAACCGACATGCCCGTGTAGCTCACAAATATGACAGTGGCGTGAATTTTGCGCATTGACGGCAGTTATGATTCGCGGTATTGCTTAACTGTGATTGCACATTTAGTAATCACTGTTTTCTTTTCCACCAGAAACCAGTATGAGGGAAACGAGGC (double strand) [rmf promoter probe (256 bp)]”: binds (10 mM ppGpp, increased binding); binds (no effector).
“CGTACCGACCCCATATCGTGACGCCGCTGCTGTTGTACTAACCAAACAGGTTCCCCCTGCCATTCGCCGATTTGTAGTGCGCGCTGACCCACAAGATCGAAATTTGCCGCTTCGCCATATGGCAATTCTCCCTTCGGCAACCATAATTTTTGTTCATGGCTGACGACCCACCAGCCGTGATCTAATTTTTCAATTATACGATCCATAGCTCTTGCACTACCTTTGCATCACTGGCATGTTTAACATGGTTTTTACATTTCTCACTGAGCAGTTTTTGAATACAAACTTGCGGAGTCAATC (double strand) [rsd promoter probe (300 bp)]”: binds (10 mM ppGpp, increased binding); binds (no effector).

For at least one entry, the source does not settle the construct or the ends of the probe. Protein sequences can lack the tags named with them.
